From PMC11900278, “Expression, Characterization and Selective Chemical Inhibition of Essential Schistosoma mansoni Tegumental Acetylcholinesterase (SmTAChE)” (2025)

Sequences of proteins named here, by UniProt entry; tags and fusion partners are left off. Residues count along the entry.
UniProt P22303, 32-614 limits assumed: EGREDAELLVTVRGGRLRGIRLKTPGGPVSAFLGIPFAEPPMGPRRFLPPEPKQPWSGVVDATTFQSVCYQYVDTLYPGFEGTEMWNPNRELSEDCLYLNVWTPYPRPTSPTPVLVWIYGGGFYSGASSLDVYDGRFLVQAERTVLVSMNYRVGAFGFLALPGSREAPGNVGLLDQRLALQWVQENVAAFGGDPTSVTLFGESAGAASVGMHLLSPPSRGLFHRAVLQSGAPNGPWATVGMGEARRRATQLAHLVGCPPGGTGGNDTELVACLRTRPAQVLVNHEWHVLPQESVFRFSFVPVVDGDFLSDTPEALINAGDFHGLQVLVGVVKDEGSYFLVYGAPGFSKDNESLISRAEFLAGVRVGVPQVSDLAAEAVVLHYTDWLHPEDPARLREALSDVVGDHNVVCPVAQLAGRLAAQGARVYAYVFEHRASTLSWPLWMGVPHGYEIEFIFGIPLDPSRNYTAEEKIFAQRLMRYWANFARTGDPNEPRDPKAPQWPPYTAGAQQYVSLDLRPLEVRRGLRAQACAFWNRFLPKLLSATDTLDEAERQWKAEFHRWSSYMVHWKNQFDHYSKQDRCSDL

Experiments:
rSmTAChE [1] = biological target: T1, rSmTAChE (Schistosoma mansoni, UniProt A0A3Q0KMM5); experiment: IC50 determination with rSmTAChE (Ellman, 384-well); settings: for IC50: read-out: IC50 rSmTAChE, rSmTAChE
rSmTAChE [2] = biological target: T1, rSmTAChE; experiment: MLPCN-Broad Validation Library screen against rSmTAChE (384-well Ellman assay); settings: inhibitors at 7.5 µM, duplicate screen
rSmTAChE [3] = biological target: T1, rSmTAChE; experiment: rSmTAChE kinetics and substrate specificity (modified Ellman method); settings: for Kcat (turnover rate) / Km: rSmTAChE, substance used as substrate; for catalytic activity of rSmTAChE with substrate (in words): rate of hydrolysis, Figure 1B
[4] = biological target: tegumental AChE activity in live schistosomula parasites (Schistosoma mansoni, UniProt A0A3Q0KMM5); experiment: Inhibitor impact on tegumental AChE activity of live schistosomula; settings: for IC50: read-out: IC50 Schistosomula, live schistosomula parasites
[5] = biological target: recombinant human AChE (rHsAChE) (Homo sapiens, UniProt P22303); experiment: IC50 determination with recombinant human AChE; settings: read-out: IC50 rHsAChE
[6] = tested on: cholinesterase activity from mouse brain; settings: earlier studies ref 65, 66; cited from earlier work
[7] = tested on: schistosome cholinesterase; settings: earlier studies ref 65, 66; cited from earlier work
[8] = tested on: native AChE on the tegumental surface of live schistosomula; experiment: AChE activity displayed by living parasites (Michaelis–Menten kinetics); settings: read-out: Km, native AChE on living schistosomula, ATCh as substrate

With `Cc1ccc2c(c1C)NC(C(=O)O)C1CC=CC21` (stereo not drawn) the “inhibition of rSmTAChE (in words)” value (rSmTAChE [1]; increasing concentrations of inhibitor) was “not able to inhibit rSmTAChE in a dose-dependent manner”, the “Inhibition (%) of rSmTAChE” value (rSmTAChE [2]; 7.5 µM) was 49.44% and the “Inhibition (%) of rSmTAChE” value (rSmTAChE [2]; listed as #9, 7.5 µM) was ~ 50%.

With butyrylthiocholine iodide the “Kcat (turnover rate)” value (rSmTAChE [3]) was 10.67 ± 0.22 S^−1, the Km (rSmTAChE [3]) was 330 µM and the “catalytic activity of rSmTAChE with substrate (in words)” value (rSmTAChE [3]) was “almost no activity”.

For `CN(C)C(=O)Oc1cccc([N+](C)(C)C)c1`, the IC50 (rSmTAChE [1]) was 1.29 µM and the IC50 [4] was 0.8 µM.

`CNC(=O)Oc1ccc2c(c1)[C@]1(C)CCN(C)[C@@H]1N2C` gave an IC50 (rSmTAChE [1]) of 0.37 µM and an IC50 [4] of 0.26 µM.

Work on `COc1ccc(CCNCc2ccc(OCC(=O)N3CCCCC3)c(OC)c2)cc1OC` yielded an IC50 (rSmTAChE [1]) of 30.7 µM and an IC50 [5] of 24.3 µM.

For `N/C(=N\OC(=O)/C=C/c1ccccc1)c1ccc(Br)cc1`, the “Inhibition (%) of rSmTAChE” value (rSmTAChE [2]) was 33.74%.

For `CCCCN(CCCC)CCCOC(=O)c1ccc(N)cc1`, the “Inhibition (%) of rSmTAChE” value (rSmTAChE [2]; 7.5 µM) was 68.57% and the “Inhibition (%) of rSmTAChE” value (rSmTAChE [2]; listed as butacaine, 7.5 µM) was 69%.

In the case of propionylthiocholine iodide, the “Kcat (turnover rate)” value (rSmTAChE [3]) is reported as 74.16 ± 0.35 S^−1, the Km (rSmTAChE [3]) is reported as 140 µM and the “catalytic activity of rSmTAChE with substrate (in words)” value (rSmTAChE [3]) is reported as “Very weak activity”.

For `COc1cc(CNCCc2ccccc2F)ccc1OCC(=O)N1CCCCC1.Cl`, the “fold lower IC50 for rSmTAChE compared with human AChE” value (rSmTAChE [1]; rSmTAChE versus rHsAChE) was ~ 200 fold, the “Inhibition (%) of rSmTAChE” value (rSmTAChE [2]; 7.5 µM) was 85% and 84.81% and the “Inhibition (%) of rSmTAChE” value (rSmTAChE [2]; listed as Compound #2, 7.5 µM) was ~ 85%.

For `CCN(CC)CCNc1ccc(CO)c2sc3ccccc3c(=O)c12`, the “effect on cholinesterase activity from mouse brain (in words)” value [6] is listed as “not affected significantly”, the “Inhibition (%) of rSmTAChE” value (rSmTAChE [2]) is listed as 60.91% and the “inhibition of schistosome cholinesterase (in words)” value [7] is listed as “can inhibit schistosome cholinesterase”.

Huperzine gave an IC50 (rSmTAChE [1]) of 11.9 µM and an IC50 [4] of 6 µM.

For `CCOC(=O)C1=C2c3ccc4ccccc4c3CC(C)(C)N2C(=O)C1=O`, the “Inhibition (%) of rSmTAChE” value (rSmTAChE [2]) was 36.17%.

For `COc1cccc2c1C(=O)OC2=Cc1ccc2c(c1)OCO2`, the “Inhibition (%) of rSmTAChE” value (rSmTAChE [2]) was 33.23%.

In the case of `CC(C)NP(=O)(NC(C)C)OP(=O)(NC(C)C)NC(C)C`, the “AChE inhibition in live parasite assays (in words)” value ([4]; live schistosomula) is reported as “No AChE inhibition”.

`COP(=O)(OC)OC=C(Cl)Cl` gave an IC50 (rSmTAChE [1]) of 0.12 µM and an IC50 [4] of 0.2 µM.

For `CCc1cc2c(=O)c(-c3ccc4c(c3)OCCO4)coc2c(CN2CCCCC2C)c1O` (stereo not drawn), the IC50 (rSmTAChE [1]) was 5.22 µM, the IC50 (rSmTAChE [1]; listed as Compound #8) was 5.45 µM and the “Inhibition (%) of rSmTAChE” value (rSmTAChE [2]; 7.5 µM) was 49.19%. The “Inhibition (%) of rSmTAChE” value (rSmTAChE [2]; listed as Compound #8, 7.5 µM) was ~ 50% and the IC50 [5] was over 200 µM.

For `CC(=O)SCC[N+](C)(C)C`, the “Kcat (turnover rate)” value (rSmTAChE [3]) was 372.79 ± 38.6 S^−1, the Km (rSmTAChE [3]) was 320 µM and the “Kcat (turnover rate)” value (rSmTAChE [3]; listed as acetylthiocholine) was 373 ± 39 S^−1. For the same compound, the Km [8] was 390 µM.

In the case of `COc1cc(CNCCc2ccccc2F)ccc1OCC(=O)N1CCCCC1`, the IC50 (rSmTAChE [1]; listed as Compound #2) is reported as 0.76 µM.

In the case of `COc1cc(CNC2CCCCCCC2)ccc1OCC(=O)N1CCCCC1`, the IC50 (rSmTAChE [1]) is reported as 5.71 µM and the IC50 [5] is reported as 17.5 µM.

In the case of `N=C(N)c1ccc(OCCCCCOc2ccc(C(=N)N)cc2)cc1`, the “Inhibition (%) of rSmTAChE” value (rSmTAChE [2]; 7.5 µM) is reported as 69% and 68.69% and the “Inhibition (%) of rSmTAChE” value (rSmTAChE [2]; listed as Compound #5, 7.5 µM) is reported as ~ 69%.

Several values for one entry are separate records, joined by “and”; a condition that tells them apart may be missing. Equal entries are not always repeated. Where two headings read alike, the source gives them in different places.
